Each structure is given as a SMILES string. The list shows a part of the results, in another mix than the full data. Activity calls are given as the source filed them. Rule as the data show it: active = p53-positive nuclei above about 36% (passing the limit was not always enough); inactive = the rest.

Protein sequences, listed by entry. Tags and fused reporters are not part of them.
UniProt P04637, whole entry: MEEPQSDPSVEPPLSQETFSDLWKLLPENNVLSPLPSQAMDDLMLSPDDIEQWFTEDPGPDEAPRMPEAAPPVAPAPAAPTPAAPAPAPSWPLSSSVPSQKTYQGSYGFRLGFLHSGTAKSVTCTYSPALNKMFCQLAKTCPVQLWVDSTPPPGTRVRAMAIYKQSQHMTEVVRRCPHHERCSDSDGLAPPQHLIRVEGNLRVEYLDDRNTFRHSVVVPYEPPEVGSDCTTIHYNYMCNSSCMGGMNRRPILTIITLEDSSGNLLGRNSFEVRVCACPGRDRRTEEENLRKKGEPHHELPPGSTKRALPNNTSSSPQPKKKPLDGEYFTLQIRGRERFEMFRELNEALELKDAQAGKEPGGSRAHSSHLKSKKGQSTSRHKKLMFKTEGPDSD

The assay addresses Cellular tumor antigen p53 (Homo sapiens) (UniProt P04637). Put plainly: p53 stabilisation in HPV-positive human cells, imaging, p53-positive nuclei imaging, 24 h, 48 h (AID 1508601). The conditions noted are these: 24/48 h, active compounds read high, concentration not given here.
For the compound `OCCSCCO`, the p53-positive nuclei, normalised was inactive: 0.11%.

Values taken from PubChem BioAssay AID1508601 (ICCB-Longwood Screening Facility, Harvard Medical School, 2020).
